# Results of single-concentration screens

A: 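Whole-cell growth test on Mycobacterium tuberculosis, read after 4 days in a medium based on cholesterol and the lipid DPPC; the read-out is not stated. Compounds at 500 µM. The record gives no direction; compounds that gave an IC50 in retests scored well above the rest, so higher reads as more growth inhibition. Size under these conditions: about 18,000 compounds, about 900 of them at 50% or above in at least one test.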
B: 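Phenotypic screen: M. tuberculosis growth, glucose 7H9 medium, 3 days; the read-out is not stated. Tested at 500 µM. Direction is inferred from retests: higher values go with more growth inhibition. Size under these conditions: about 18,000 compounds, about 1,400 of them at 50% or above in at least one test.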

Results are given as percent effect. The controls that fix the scale are not given in the record; negative values are as filed. This is part of a subset picked to be rich in strong results. A dash means the value is not listed here; it may have been measured.

structure,A,B
COC(=O)[C@@H]1C[C@@H](O)CN1Cc1ccccc1N(C)C,4.646,-
Cc1ccc(S(=O)(=O)CCC(=O)NC(N)=O)cc1,78.75,92.83
CSCC(CCO)NC(=O)NCc1ccccc1Cl (stereo not drawn),-,34.07
COc1cccc(C(N)C(C)C)n1 (stereo not drawn),-,-8.135
O=C(CCN1CCN(CCO)CC1)Nc1ccccc1,-,8.999
NC(Cc1ccccc1)C(=O)NC1CC1 (stereo not drawn),8.344,-
c1ccc2c(c1)COC21CCCNC1 (stereo not drawn),-,-13.53
c1ccc2[nH]c(C3CNC3)nc2c1,16.59,31.53
CN(Cc1ccccc1)CC(O)CN1CCOCC1 (stereo not drawn),-1.892,-
COC(=O)C(C)(C)NC(=O)Cc1ccc(F)cc1,6.496,-
Cc1ccc(C(N)=O)cc1NCC(C)C,-,51.9
Cn1cc(Cn2nc(-c3ccco3)oc2=O)cn1,52.83,63.07
CCN(Cc1ccc(Cl)s1)C(=O)c1ccc(=O)n(C)n1,-18.69,-
NC1CCN(c2ccc(C(F)(F)F)cn2)CC1,57.84,77.15
COc1cc(F)cc(NC(=O)N2CCCC2)c1,1.049,-
Cc1ccc(C(O)c2cccnc2)cc1 (stereo not drawn),37.59,57.19
CCc1noc(Cn2ccc3ncccc3c2=O)n1,-,19.38
CSc1ccncc1N,0.5444,-
CCCN(C)C(=O)Cn1ccc(=O)[nH]c1=O,-,12.51
CC(Cc1ccco1)NS(=O)(=O)N1CCOCC1 (stereo not drawn),-,13.13
N#CCCn1cc(C(N)=O)cn1,-18.01,-
CCSc1cncc(N2CCC(O)CC2)n1,-,34.7
O=C(NCCOc1ncccc1Cl)c1cscn1,-10.66,-4.379
CNC(=O)CN(C)C(=O)CCc1ccc(Br)cc1F,70.28,75.82
COCc1noc(CN(C(C)C)C(C)C)n1,-,5.371
O=C(NCCCN1CCCC1)c1ccccn1,-,19.83
O=C(NC1CCN(C2CCSCC2)CC1)c1ccon1,-,-24.51
Cn1ccc(C(=O)Nc2sc3c(c2C(N)=O)CCC3)n1,-,3.018
c1cc(CC2CCNCC2)ccn1,2.109,-
CCCOCCNC(=O)c1cc(C(F)(F)F)n[nH]1,73.14,74.57
COCCC1CN(C(=O)c2ccc(C)c(F)c2)CCO1 (stereo not drawn),69.73,59.06
CNC(=O)c1cc(OC2CCCNC2)ccn1 (stereo not drawn),-,2.831
CC(N)c1ccc(OCC(=O)NC2CC2)cc1 (stereo not drawn),-,10.03
CCCC(N)CNS(=O)(=O)c1c(C)nn(C)c1C (stereo not drawn),13.6,-
CSc1nnc(NC(C)(C)C)s1,41.94,26.52
O=C(Cn1ccc(=O)[nH]c1=O)NCc1cccc(Cl)c1,-,23.26
CNCC(=O)Nc1cccc2ccccc12,-,23.16
CC1(C)CCCN(C(=O)CCS(C)(=O)=O)CC1,35.31,35.74
CCOc1ccc(NC(=O)NC2CCN(C)CC2)cc1,-,0.09022
CC1CCN(CC(=O)NCC2CCCO2)CC1 (stereo not drawn),-,42.85
CCn1nnc(NC(=O)Cc2ccc(Cl)cc2)n1,37.12,40.17
OCCN1CCc2ccccc2C1,6.469,17.3
COc1cc(CCC(=O)Nc2cc[nH]n2)cc(OC)c1,-,29.09
CC(C)(C)C(=O)CCN1CCCCC1,90.86,100.1
CN(Cc1ncc[nH]1)C(=O)Cc1cc(F)cc(F)c1,-,7.901
CC(C(=O)N1CC[C@H](O)C1)c1ccsc1 (stereo partly drawn),-,10.58
Cc1nc(O)cc(CNC(=O)c2ncc(F)cc2F)n1,-,-0.7563
COc1ccnc(NCc2ccco2)n1,15.08,36.58
Cn1cc(CNC(=O)c2c(Br)cnn2C)cn1,-,16.15
Cc1csc(CNC(=O)NC(C)Cn2cccn2)n1 (stereo not drawn),-,-1.653
CC(CO)(CO)NCc1cc2cc(F)ccc2o1,9.821,-
NC1CCCCNC1=O (stereo not drawn),-,-6.495
CCC(CO)NC(=O)c1cc(N(C)C)ccn1 (stereo not drawn),-,-10.96
CNC1CCN(c2cc(OC)cc(OC)c2)C1 (stereo not drawn),52.88,70.54
OC1(CN2CCc3ccccc3C2)CNCCOC1 (stereo not drawn),-,10.42
Cc1cc(N2CCNC2=O)ccc1NS(=O)(=O)C1CC1,-,14.69
Cc1nn(C)c(Cl)c1C1CCCN1 (stereo not drawn),-4.685,-
CCN(Cc1ccc2c(c1)OCCO2)[C@H]1COC[C@@H]1O,-,11.03
CCCn1cc(NC(=O)c2ccc(O)nc2)ccc1=O,-,0.5908
O=C(CNC(CO)C1CC1)Nc1ccccc1 (stereo not drawn),-,-10.25
CCC(C(=O)NCc1ccc(F)c(F)c1)n1cccn1 (stereo not drawn),-,47.16
Cc1cnn(C(=O)c2nn(C)c(C)c2Cl)c1,-,33.61
CCN(CC)CC(=O)Nc1sccc1C(N)=O,-6.177,-6.523
CCCNc1nnc(S(=O)(=O)CCCC#N)s1,-,8.405
CCN(CC(N)=O)Cc1ccccc1NC(C)=O,-,-2.993
NCCc1ccc2[nH]ccc2c1,31.43,13.01
O=C(Nc1nnc(-c2cccs2)s1)NC1CCCNC1 (stereo not drawn),56.09,63.52
CN(C)C(=O)CN1C=Nc2ccccc2S1(=O)=O,-4.69,-
N#Cc1ccccc1NC(=O)CCN1CCCC(O)C1 (stereo not drawn),-,-5.713
CC(C)[C@@H](CCN)NC(=O)OC(C)(C)C,-,5.318
COc1cc2c(cc1OC)CN(C(=O)CCN)CC2,-,14.11
CC(=O)c1ccc(NC(=O)CCc2cccs2)nc1,-,-8.027
CCCNCCN1CCN(CC)CC1,-,-2.581
O=C(CCC(=O)c1ccccc1)NCc1n[nH]c(=O)[nH]1,-,-5.938
NC(=O)C[C@H](N)c1cccc(Cl)c1,-,-2.514
CCOCn1cnc2sccc2c1=O,-,2.813
O=C(Cc1ccc2c(c1)OCO2)N[C@H]1C[C@@H]2OCC[C@H]12,-,-9.297
O=C(COC(=O)C1=COCCO1)Nc1ccc(I)cc1,-,5.887
CC[C@@H](CO)NC(=O)NCC(C)c1ccsc1 (stereo partly drawn),62.32,74.29
O=C(c1cncc(-c2cn[nH]c2)n1)N1CCCCC1,-,12.02
CN(CCCOc1ccc(C#N)cc1)CC(N)=O,-,9.33
CCC1(CC)CN(C(=O)NCCC(C)C)CCS1(=O)=O,55.74,53.47
N[C@@H]1CCN(Cc2cc(F)cc(C(F)(F)F)c2)C[C@H]1O,41.99,60.36
Cc1ccc(OCC(=O)NCCO)c(Br)c1,-,48.58
CCS(=O)(=O)N1CCN(c2ccc(C)nn2)CC1,-3.241,-
Cc1cc(NC(=O)CN2CCCC(C)C2)n(C)n1 (stereo not drawn),-1.491,-
Cc1nn(C)c(Cl)c1C(=O)N1CCN(C2CC2)CC1,-,-2.13
CCCNc1nnc(SC2CCOC2)s1 (stereo not drawn),94.06,80.43
O=C(CSc1ncnn1-c1ccccc1)N1CCCC1,44.33,59.16
CCNC(=O)Cc1n[nH]c(=O)c2ccccc12,-15.24,-

From ChEMBL document CHEMBL3988442, “University of Dundee, Small-Polar-MMV Screening Library” (2021).